Results of unrelated studies side by side (data: NIAID ChemDB).

Common to all: whole-cell or culture tests; agent: Mycobacterium tuberculosis

ECn is the concentration giving n% inhibition of infection, replication or growth. MIC bound: limit read from a one-dose screen. MIC50, MIC90 and the like: level of inhibition, or share of isolates inhibited. Blank or dashed fields: not listed here. a–b is a range or a potency band. Percent inhibition refers to the dose given; in toxicity tests it is the harm to the cells. Neighbouring rows are from separate reports.

structure	cells	endpoint	dose	method	strain	result
FC(F)(F)c1cc(NCCCCCCCNc2cc(C(F)(F)F)nc3c(C(F)(F)F)cccc23)c2cccc(C(F)(F)F)c2n1		MIC			H37Rv	>6.25 µg/mL
C=CCN1C(=O)/C(=C/c2ccc(OC)c(O)c2)S/C1=N\c1nc2ccccc2s1		MIC			H37Rv	≥25 µg/mL
CCOC(=O)c1ccc2nc(-c3ccc(OC(F)(F)F)cc3)[nH]c2c1		EC90		resazurin / fluorescence	H37Rv	>100 µM
O=C(O)c1cc(O)c2ncccc2c1		MIC50			M 607	>25 µg/mL
C=CCN1C(=O)S/C(=C/c2ccccc2)C1=O		MIC			H37Rv	≥25 µg/mL
O=C(N/N=C/c1ccc(F)cc1)c1cc(-c2ccc(F)cc2F)ccc1O		MIC		resazurin	H37Rv	>6.25 µg/mL
FC(F)(F)c1cc(NCCNc2cc(C(F)(F)F)nc3c(C(F)(F)F)cccc23)c2cccc(C(F)(F)F)c2n1		inhibition	6.25 µg/mL		H37Rv	46%
CCOC(=O)c1ccc2c(c1)nc(-c1ccccc1)n2CCN1CCCC1=O		MIC		resazurin / fluorescence	H37Rv	100 µM
O=C(O)C(Cc1ccccc1)N1CSC(=S)N(c2ccco2)C1		MIC			H37Rv	50 µg/mL
COC(=O)CCC(N)C(=O)NC(Cc1ccccc1)C(=O)NC(C)C(=O)NC1C(O)OC(CO)C(O)C1O		inhibition	12.5 µg/mL	BACTEC	H37Rv	0%
COc1cc(/C=N/NC(=O)c2cc(-c3ccc(F)cc3F)ccc2O)ccc1O		MIC		resazurin	H37Rv	>6.25 µg/mL
CO[C@H]1/C=C/O[C@@]2(C)Oc3c(C)c(O)c4c(O)c(c(/C=N/N5CCNCC5)c(O)c4c3C2=O)NC(=O)/C(C)=C\C=C\[C@H](C)[C@H](O)[C@@H](C)[C@@H](O)[C@@H](C)[C@H](OC(C)=O)[C@@H]1C		EC50			H37Rv	2 µg/mL
C=CCN1C(=O)/C(=C/c2cccc(O)c2)S/C1=N\c1nc2ccccc2s1		MIC			H37Rv	≥25 µg/mL
CO[C@H]1/C=C/O[C@@]2(C)Oc3c(C)c(O)c4c(O)c(c(C=NN5CCCCC5)c(O)c4c3C2=O)NC(=O)/C(C)=C\C=C\[C@H](C)[C@H](O)[C@@H](C)[C@@H](O)[C@@H](C)[C@H](OC(C)=O)[C@@H]1C		EC50			H37Rv	0.05 µg/mL
CC[C@@H](CO)NCCN[C@@H](CC)CO		EC50		resazurin / fluorescence	H37Rv	3.45 µM
CO[C@H]1/C=C/O[C@@]2(C)Oc3c(C)c(O)c4c(O)c(c(/C=N/O)c(O)c4c3C2=O)NC(=O)/C(C)=C\C=C\[C@H](C)[C@H](O)[C@@H](C)[C@@H](O)[C@@H](C)[C@H](OC(C)=O)[C@@H]1C		EC50			H37Rv	5 µg/mL
CC(=O)c1c(CO[N+](=O)[O-])n([O-])c2ccccc2[n+]1=O		MIC		BACTEC	H37Rv	≥12.5 µg/mL
CO[C@H]1/C=C/O[C@@]2(C)Oc3c(C)c(O)c4c(O)c(c(/C=N/N(C)CCN(C)C)c(O)c4c3C2=O)NC(=O)/C(C)=C\C=C\[C@H](C)[C@H](O)[C@@H](C)[C@@H](O)[C@@H](C)[C@H](OC(C)=O)[C@@H]1C		EC50			H37Rv	0.5 µg/mL
C=CCN1C(=O)/C(=C/c2ccccc2O)S/C1=N\c1nc2ccccc2s1		MIC			H37Rv	≥25 µg/mL
Cc1ccnc2c(O)cccc12		MIC50			H37Rv	0.5–1 µg/mL
CCOC(=O)C1=CNc2c(C#N)cnn2C1(C(=O)OCC)c1c[nH]c2ccccc12		MIC bound		resazurin	H37Rv	>6.25 µg/mL
CCCc1ccc(O)c2ncccc12		MIC50			H37Rv	>10 µg/mL
FC(F)(F)c1cc(NCCCNc2cc(C(F)(F)F)nc3c(C(F)(F)F)cccc23)c2cccc(C(F)(F)F)c2n1		inhibition	6.25 µg/mL		H37Rv	10%
CO[C@H]1/C=C/O[C@@]2(C)Oc3c(C)c(O)c4c(O)c(c(/C=N/c5ccccn5)c(O)c4c3C2=O)NC(=O)/C(C)=C\C=C\[C@H](C)[C@H](O)[C@@H](C)[C@@H](O)[C@@H](C)[C@H](OC(C)=O)[C@@H]1C		EC50			H37Rv	5 µg/mL
COC(=O)c1cc2c(nn1)C(=O)Nc1ccccc1C2(C)C		MIC bound		BACTEC	H37Rv	>12.5 µg/mL
FC(F)(F)c1cc(NCCN2CCCC2)c2cccc(C(F)(F)F)c2n1		MIC			H37Rv	>6.25 µg/mL
CCOC(=O)c1ccc2c(c1)nc(-c1ccc(N(C)C)cc1)n2CCN1CCCOC1		EC50		resazurin / fluorescence	H37Rv	>100 µM
C=CCN1C(=O)/C(=C\c2ccncc2)S/C1=N\c1nc2ccccc2s1		MIC			H37Rv	≥25 µg/mL
NCC(=O)N[C@H](CO)C(=O)O		MIC bound		BACTEC	H37Rv	>12.8 µg/mL
CO[C@H]1/C=C/O[C@@]2(C)Oc3c(C)c(O)c4c(O)c(c(C=Nc5ccc(Cl)cc5)c(O)c4c3C2=O)NC(=O)/C(C)=C\C=C\[C@H](C)[C@H](O)[C@@H](C)[C@@H](O)[C@@H](C)[C@H](OC(C)=O)[C@@H]1C		EC50			H37Rv	>5 µg/mL
CCOc1ccc(N2C(=O)/C(=C/c3ccccn3)S/C2=N\c2ccccn2)cc1		MIC			H37Rv	≥25 µg/mL
CC(C)=NNC(=O)CNc1ccc(Cl)c(C(F)(F)F)c1		MIC bound		BACTEC	H37Rv	>12.5 µg/mL
Cc1c(C(=O)N(CCO)CCO)nn(-c2ccc(Cl)cc2Cl)c1-c1ccc(Cl)cc1		MIC		absorbance	H37Rv	>100 µg/mL
CC1(C)CNCC(C)(OCc2ccccc2)C(=O)NC(C)(C)CNCC(C)(OCc2ccccc2)C(=O)N1		MIC bound		BACTEC	H37Rv	>12.5 µg/mL
NCC[C@H](O)C(=O)N[C@@H]1C[C@H](N)[C@@H](O[C@H]2O[C@H](CN)[C@@H](O)[C@H](O)[C@H]2O)[C@H](O)[C@H]1O[C@H]1O[C@H](CO)[C@@H](O)[C@H](N)[C@H]1O		MIC90			30 isolates/HIV+	>64 µg/mL
Nc1nc2ccc([N+](=O)[O-])cc2[nH]1		MIC bound		resazurin	H37Rv	>6.25 µg/mL
Cc1ccc2cccc(O)c2n1		MIC50			M 607	>25 µg/mL
O=C(Nc1ccc(C2=NCCCN2)cc1)c1ccc(C(=O)Nc2ccc(C3=NCCCN3)cc2)nc1		MIC			INH-r	12.5 µg/mL
C[Si]1(C)CCN(C(=O)c2nn(-c3ccc(Cl)cc3Cl)c(-c3ccc(Cl)cc3)c2CO)CC1		MIC		absorbance	H37Rv	>100 µg/mL
CCCCN1CN(CCC(=O)O)CSC1=S		MIC			H37Rv	25 µg/mL
O=C(O)c1ccc(O)c2ncccc12		MIC50			H37Rv	5–10 µg/mL
O=c1c2ccccc2sc2c1c(N(CCCl)CCCl)cc1ccccc12		MIC bound		BACTEC	H37Rv	>12.5 µg/mL
CCCCCCCCCCCCCCCCN1CSC(=S)N(Cc2ccccc2)C1		MIC			H37Rv	50 µg/mL
Cc1ccc2nc(-c3cccc(Cl)c3)oc(=O)c2c1		MIC bound		BACTEC	H37Rv	>12.5 µg/mL
CO[C@H]1/C=C/O[C@@]2(C)Oc3c(C)c(O)c4c(O)c(c(/C=N/NC(N)=O)c(O)c4c3C2=O)NC(=O)/C(C)=C\C=C\[C@H](C)[C@H](O)[C@@H](C)[C@@H](O)[C@@H](C)[C@H](OC(C)=O)[C@@H]1C		EC50			H37Rv	5 µg/mL
CCOC(=O)CNC(=O)c1nn(-c2ccc(Cl)cc2Cl)c(-c2ccc(Cl)cc2)c1C		MIC		absorbance	H37Rv	>100 µg/mL
CCOC(=O)c1ccc2c(c1)nc(-c1ccc(Cl)cc1)n2CCN1CCCOC1		EC50		resazurin / fluorescence	H37Rv	44.75 µM
O=C(N/N=C/c1ccc2c(c1)OCO2)c1ccncc1	VERO	MIC			H37Rv	0.1 µg/mL
CCOC(=O)c1cn(Cc2nn(-c3ccc(Cl)cc3Cl)c(-c3ccc(Cl)cc3)c2C)nn1		MIC		absorbance	H37Rv	>100 µg/mL
CCOC(=O)c1ccc2c(c1)nc(-c1ccc(O)c(OC)c1)n2CCN1CCCC1=O		EC90		resazurin / fluorescence	H37Rv	>100 µM
CCc1ccc(O)c2ncccc12		MIC50			M 607	5 µg/mL
O=C(N/N=C/c1ccc(Br)cc1)c1cc(-c2ccc(F)cc2F)ccc1O		MIC		resazurin	H37Rv	>6.25 µg/mL
Cc1onc(-c2ccccc2)c1NC(=O)OC(C)c1cccnc1		MIC bound		resazurin	H37Rv	>6.25 µg/mL
CCOc1ccc(N2C(=O)/C(=C/c3ccc(O)c(OC)c3)S/C2=N\c2ccccn2)cc1		MIC			H37Rv	≥25 µg/mL
Cc1nn(C(=O)c2ccncc2)c(C)c1N=Nc1ccc([N+](=O)[O-])cc1		MIC bound		BACTEC	H37Rv	>12.5 µg/mL
CCN(CC)CCOC(=O)c1ccc2cccnc2c1O		MIC50			M 607	>25 µg/mL
S=C1SCN(C2CCCCC2)CN1Cc1ccccc1		MIC			H37Rv	50 µg/mL
O=C(N/N=C/c1ccc(O)cc1)c1cc(-c2ccc(F)cc2F)ccc1O		inhibition	6.25 µg/mL	resazurin	H37Rv	17%
O=C(N/N=C(\c1nc2ccc([N+](=O)[O-])cc2[nH]c1=O)C(O)c1ccc([N+](=O)[O-])cc1)c1ccncc1	VERO	MIC			H37Rv	≤0.04 µg/mL
CCOC(=O)c1ccc2c(c1)nc(-c1ccc(OC(F)(F)F)cc1)n2CCN1CCCC1=O		EC90		resazurin / fluorescence	H37Rv	>100 µM
CC[C@H]1OC(=O)[C@H](C)[C@@H](O[C@H]2C[C@@](C)(OC)[C@@H](O)[C@H](C)O2)[C@H](C)[C@@H](O[C@@H]2O[C@H](C)C[C@H](N(C)C)[C@H]2O)[C@](C)(OC)C[C@@H](C)C(=O)[C@H](C)[C@@H](O)[C@]1(C)O		MIC50			30 isolates/HIV+	4 µg/mL
CCCCCCCCC/C=N/Nc1ccc([N+](=O)[O-])cn1		MIC		BACTEC	H37Rv	0.8 µg/mL
C[Si](C)(C)CCNC(=O)c1nn(-c2ccc(Cl)cc2Cl)c(-c2ccc(Cl)cc2)c1CO		MIC		absorbance	H37Rv	>100 µg/mL
Oc1c(Br)cc(Br)c2cccnc12		MIC50			H37Rv	5 µg/mL
CC(C)C1OC(=O)/C=C/C=C/C=C/C=C/C=C/CC(O)C(C)C(O)CC(O)CC(O)CC(O)CC(O)CC(O)CC(O)/C=C/C1C		MIC		BACTEC	H37Rv	≥12.5 µg/mL
C=CCN1C(=O)/C(=C\c2ccc(C)o2)S/C1=N\c1nc2ccccc2s1		MIC			H37Rv	12.5 µg/mL
O=c1[nH][nH]c(=O)c2c1nc(SCc1ccccc1)n2Cc1ccccc1		inhibition	12.5 µg/mL	BACTEC	H37Rv	0%
CCOC(=O)c1ccc2c(c1)nc(-c1ccc([N+](=O)[O-])cc1)n2CCN1CCCOC1		EC90		resazurin / fluorescence	H37Rv	>100 µM
O=C(N/N=C/c1ccc(Cl)cc1)c1cc(-c2ccc(F)cc2F)ccc1O		inhibition	6.25 µg/mL	resazurin	H37Rv	15%
O=c1cc(-c2ccccc2)c2cc3c(cc2[nH]1)oc1ccccc13		MIC bound		BACTEC	H37Rv	>12.5 µg/mL
CCOc1ccc(N2C(=O)/C(=C/c3ccc(C)o3)S/C2=N\c2ccccn2)cc1		MIC			H37Rv	≥25 µg/mL
FC(F)(F)c1cc(NCCN2CCCCC2)c2cccc(C(F)(F)F)c2n1		inhibition	6.25 µg/mL		H37Rv	98%
Cc1c(CN2CCOCC2)nn(-c2ccc(Cl)cc2Cl)c1-c1ccc(Cl)cc1		MIC		absorbance	H37Rv	50 µg/mL
CO[C@H]1/C=C/O[C@@]2(C)Oc3c(C)c(O)c4c(O)c(c(C=Nc5ccncc5)c(O)c4c3C2=O)NC(=O)/C(C)=C\C=C\[C@H](C)[C@H](O)[C@@H](C)[C@@H](O)[C@@H](C)[C@H](OC(C)=O)[C@@H]1C		EC50			H37Rv	2 µg/mL
O=Cc1ccc2cccnc2c1O		MIC50			M 607	>25 µg/mL
Cc1c(C(=O)N(C)C)nn(-c2ccc(Cl)cc2Cl)c1-c1ccc(Cl)cc1		MIC		absorbance	H37Rv	50 µg/mL

Repeating the final 7 entries:

structure	cells	endpoint	dose	method	strain	result
O=c1cc(-c2ccccc2)c2cc3c(cc2[nH]1)oc1ccccc13		MIC bound		BACTEC	H37Rv	>12.5 µg/mL
CCOc1ccc(N2C(=O)/C(=C/c3ccc(C)o3)S/C2=N\c2ccccn2)cc1		MIC			H37Rv	≥25 µg/mL
FC(F)(F)c1cc(NCCN2CCCCC2)c2cccc(C(F)(F)F)c2n1		inhibition	6.25 µg/mL		H37Rv	98%
Cc1c(CN2CCOCC2)nn(-c2ccc(Cl)cc2Cl)c1-c1ccc(Cl)cc1		MIC		absorbance	H37Rv	50 µg/mL
CO[C@H]1/C=C/O[C@@]2(C)Oc3c(C)c(O)c4c(O)c(c(C=Nc5ccncc5)c(O)c4c3C2=O)NC(=O)/C(C)=C\C=C\[C@H](C)[C@H](O)[C@@H](C)[C@@H](O)[C@@H](C)[C@H](OC(C)=O)[C@@H]1C		EC50			H37Rv	2 µg/mL
O=Cc1ccc2cccnc2c1O		MIC50			M 607	>25 µg/mL
Cc1c(C(=O)N(C)C)nn(-c2ccc(Cl)cc2Cl)c1-c1ccc(Cl)cc1		MIC		absorbance	H37Rv	50 µg/mL